Pooled drug test results. Numbers come from NIAID ChemDB, via PubChem.

All rows: tests in culture; species: HIV-1

Conditions beyond the fields shown may differ between rows. ECn is the concentration giving n% inhibition of infection, replication or growth. Blank or dashed fields: not listed here.

structure	strain or isolate	changes	read by	cell line	measure	conditions	result
CCCc1c(Cc2ccccc2)n(COC/C(C)=C/c2ccccc2)c(=O)[nH]c1=O	IIIB	-	cytopathic effect / MTT	MT-4	EC50	-	0.04 µM
Cc1cc(/C=C2\C(=O)Nc3ccc(S(=O)(=O)N(CC(C)C)C[C@@H](O)[C@H](Cc4ccccc4)NC(=O)O[C@H]4CO[C@H]5OCC[C@H]54)cc32)cc(C)c1O	F	PR-L10F M46I M71V I84V	cytopathic effect / MTT	MT-4	EC50	-	0.05 µM
CCCc1c(Cc2cc(C)cc(C)c2)n(COC2C=CCCC2)c(=O)[nH]c1=O	NNRTI-resistant (RT K103N Y181C) A17	RT-K103N Y181C	cytopathic effect / MTT	MT-4	EC50	-	>100 µM
CC(C)=CCOc1cc(NC(=S)c2ccsc2C)ccc1Cl	NL4-3 (RT V179D)	RT-V179D	cytopathic effect / XTT	CEM + CEM-SS	EC50	-	0.006 µM
Cc1cc(C)c(CS(=O)c2cccc[n+]2[O-])c(C)c1	RF	-	syncytia	CEM	EC50	-	12 µg/mL
CCc1c(Cc2cc(C)cc(C)c2)n(COC2C=CCCC2)c(=O)[nH]c1=O	NNRTI-resistant (RT Y181C) N119	RT-Y181C	cytopathic effect / MTT	MT-4	EC50	-	>100 µM
O=C1Nc2ccc(F)c(F)c2C(C#Cc2cccs2)(C(F)(F)F)O1	-	-	-	-	EC50	-	<0.00223 µM
COc1ccnc2[nH]cc(C(=O)C(=O)N3CCN(C(=O)c4ccccc4)C[C@H]3C)c12	NL4-3 (gp120 R350K M475I) Recombinant	GP120-R350K M475I	RT activity	MT-2	EC50	-	1.028 µM
CCCc1c(Cc2cc(C)cc(C)c2)n(COC/C=C/c2ccccc2)c(=O)[nH]c1=O	NNRTI-resistant (RT Y181C) N119	RT-Y181C	cytopathic effect / MTT	MT-4	EC50	-	6 µM
C#CCOCn1c(Cc2ccccc2)c(CF)c(=O)[nH]c1=O	IIIB	K103N + Y181C	MTT	MT-4	EC50	-	>100 µM
Cc1ccc(C)c(CS(=O)(=O)c2cccc[n+]2[O-])c1	MN	-	syncytia	CEM	EC50	-	10 µg/mL
CC(C)CN(C[C@@H](O)[C@H](Cc1ccccc1)NC(=O)O[C@H]1CO[C@H]2OCC[C@H]21)S(=O)(=O)c1ccc2c(c1)/C(=C/c1ccc(-c3ccccn3)cc1)C(=O)N2	LAI	-	cytopathic effect / MTT	MT-4	EC50	-	0.025 µM
CCc1c(Cc2cc(C)cc(C)c2)n(Cc2ccc(I)cc2)c(=O)[nH]c1=O	IIIB	EFV:K103R+V179D+P225H	MTT	MT-4	EC50	-	>43 µM
CCCc1c(Cc2cc(C)cc(C)c2)n(COCC2CC=CCC2)c(=O)[nH]c1=O	NNRTI-resistant (RT K103N Y181C) A17	RT-K103N Y181C	cytopathic effect / MTT	MT-4	EC50	-	>100 µM
C=C(C)COCn1c(Cc2ccccc2)c(CF)c(=O)[nH]c1=O	-	-	MTT	MT-4	EC50	-	>20 µM
Cc1ccc(/C=C2\C(=O)Nc3ccc(S(=O)(=O)N(CC(C)C)C[C@@H](O)[C@H](Cc4ccccc4)NC(=O)O[C@H]4CO[C@H]5OCC[C@H]54)cc32)s1	LAI	-	cytopathic effect / MTT	MT-4	EC50	-	0.011 µM
CC(C)=CCOc1cc(NC(=S)c2ccoc2C)ccc1Cl	NL4-3 (RT K103N)	RT-K103N	cytopathic effect / XTT	CEM + CEM-SS	EC50	-	0.1 µM
O=C1Nc2ccc(F)c(F)c2C(C#Cc2ccco2)(C(F)(F)F)O1	-	RT-K103N	-	-	EC90	-	0.0593 µM
CCc1c(Cc2cc(C)cc(C)c2)n(COCCF)c(=O)[nH]c1=O	IIIB	K103N + Y181C	MTT	MT-4	EC50	-	4 µM
CCCc1cc(=O)oc2c3c(c4c(c12)OC(C)(C)CC4)O[C@H](C)[C@@H](C)C3=O	TEKI	-	cytopathic effect / XTT	AA5	EC50	-	>10 µM
CCC(=O)c1ccc(F)c([C@@H]2C[C@@H]2NC(=O)Nc2ccc(C#N)cn2)c1O	LAI	NNRTI-resistant (RT Y181C/G190A)	β-galactosidase / luminescence	TZM-bl	EC50	-	0.00126 µM
COc1ccc(/C=C2\C(=O)Nc3ccc(S(=O)(=O)N(CC(C)C)C[C@@H](O)[C@H](Cc4ccccc4)NC(=O)O[C@H]4CO[C@H]5OCC[C@H]54)cc32)cc1	F	PR-L10F M46I M71V I84V	cytopathic effect / MTT	MT-4	EC50	-	0.034 µM
COc1ccc(C)cc1CS(=O)(=O)c1cccc[n+]1[O-]	IIIB	RT-E138K	syncytia	CEM	EC50	-	48 µg/mL
Cc1nnc(-c2cccc(-c3cccc(C(=O)N4CCCCC4)c3)c2)o1	CH119	-	luminescence	TZM-bl	EC50	pseudotyped	>30 µM
CC(C)=CCOC1(C(F)(F)F)OC(=O)Nc2ccc(Cl)cc21	-	RT-K103N	-	-	EC50	-	<0.083 µM
CC(C)/C=C1\C(=O)Nc2ccc(S(=O)(=O)N(CC(C)C)C[C@@H](O)[C@H](Cc3ccccc3)NC(=O)O[C@H]3CO[C@H]4OCC[C@H]43)cc21	F	PR-L10F M46I M71V I84V	cytopathic effect / MTT	MT-4	EC50	-	0.158 µM
CC(C)=CCOC1(C(F)(F)F)OC(=O)Nc2ccc(F)c(F)c21	-	RT-K103N	-	-	EC50	-	<0.065 µM
CC(C)CN(C[C@@H](O)[C@H](Cc1ccccc1)NC(=O)O[C@H]1CO[C@H]2OCC[C@H]21)S(=O)(=O)c1ccc2c(c1)/C(=C/c1ccc(N(C)C)cc1)C(=O)N2	LAI	-	cytopathic effect / MTT	MT-4	EC50	-	0.04 µM
CCc1c(Cc2cc(C)cc(C)c2)n(Cc2ccc(C#CCO)cc2)c(=O)[nH]c1=O	IIIB	K103N + Y181C	MTT	MT-4	EC50	-	>2 µM
COc1cc(/C=C2\C(=O)Nc3ccc(S(=O)(=O)N(CC(C)C)C[C@@H](O)[C@H](Cc4ccccc4)NC(=O)O[C@H]4CO[C@H]5OCC[C@H]54)cc32)ccc1O	LAI	-	cytopathic effect / MTT	MT-4	EC50	-	0.269 µM
O=C1Nc2ccc(Cl)cc2C(C#Cc2ccoc2)(C(F)(F)F)O1	-	RT-K103N	-	-	EC50	-	<0.1522 µM

The first 4 rows once more:

structure	strain or isolate	changes	read by	cell line	measure	conditions	result
CCCc1c(Cc2ccccc2)n(COC/C(C)=C/c2ccccc2)c(=O)[nH]c1=O	IIIB	-	cytopathic effect / MTT	MT-4	EC50	-	0.04 µM
Cc1cc(/C=C2\C(=O)Nc3ccc(S(=O)(=O)N(CC(C)C)C[C@@H](O)[C@H](Cc4ccccc4)NC(=O)O[C@H]4CO[C@H]5OCC[C@H]54)cc32)cc(C)c1O	F	PR-L10F M46I M71V I84V	cytopathic effect / MTT	MT-4	EC50	-	0.05 µM
CCCc1c(Cc2cc(C)cc(C)c2)n(COC2C=CCCC2)c(=O)[nH]c1=O	NNRTI-resistant (RT K103N Y181C) A17	RT-K103N Y181C	cytopathic effect / MTT	MT-4	EC50	-	>100 µM
CC(C)=CCOc1cc(NC(=S)c2ccsc2C)ccc1Cl	NL4-3 (RT V179D)	RT-V179D	cytopathic effect / XTT	CEM + CEM-SS	EC50	-	0.006 µM